Values from PubChem BioAssay AID504761 (Drosophila RNAi Screening Center, 2011)

Purpose: 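Fly genes whose silencing reduces dengue virus type 2 infection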 (primary screen)
Cells: D.Mel-2 cells from Drosophila
Reagent: long dsRNA against Drosophila genes
Conditions: infection with dengue virus type 2; dose and infection time not stated
Measured: 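Per well on two replicate plates, imaging gave the percent of cells positive for viral envelope protein, ranked by infection, and a nuclear count of cells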
Direction: infection score: higher = more virus-infected cells; cell count: higher = more cells in the well
Hit rule: 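Very low infection ranking in both replicate wells (chance probability at most 0.065), then a retest showing infection dropped 1.5-fold or more at p below 0.05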
Calls: active = confirmed: knock-down lowers infection; inactive = not picked or not confirmed
In all, the deposit lists about 22,000 reagents; this is a random part of those that have a named target and a result. Of all reagents, 116 (0.52%) are marked active. 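Calls depend on retest data that are not deposited; infection was ranked per plate without normalising between plates; the unit of the infection score is not given.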 Raw values are not corrected between plates. The numbers tell different reagents against one gene apart. No sequences are given here. Not stated in the record: the amount of reagent, the time to read-out.

The opening 2 records, ahead of the listing:
| gene | dsRNA no. | infection score, replicate 1 | infection score, replicate 2 | cell count, replicate 1 | cell count, replicate 2 | call |
| --- | --- | --- | --- | --- | --- | --- |
| CG15701 | 1 | 17.8 | 12.8 | 5199 | 6255 | inactive |
| dind | 1 | 2.66 | 3.45 | 6325 | 5978 | inactive |

The listing, from the first entry:
| gene | dsRNA no. | infection score, replicate 1 | infection score, replicate 2 | cell count, replicate 1 | cell count, replicate 2 | call |
| --- | --- | --- | --- | --- | --- | --- |
| CG15701 | 1 | 17.8 | 12.8 | 5199 | 6255 | inactive |
| dind | 1 | 2.66 | 3.45 | 6325 | 5978 | inactive |
| dind | 2 | 5.59 | 9.35 | 6624 | 6996 | inactive |
| Naa15-16 | 1 | 1.58 | 2.54 | 6503 | 6020 | inactive |
| Naa15-16 | 2 | 0.86 | 3.64 | 5951 | 6349 | inactive |
| CG33467 | 1 | 6.21 | 5.98 | 6119 | 5721 | inactive |
| CG33467 | 2 | 4.9 | 4.83 | 6667 | 2008 | inactive |
| Ugt35D1 | 1 | 7.15 | 9.03 | 6293 | 6612 | inactive |
| wkd | 1 | 4.61 | 9.02 | 6242 | 5977 | inactive |
| tum | 1 | 16.2 | 24.6 | 5010 | 2207 | inactive |
| lncRNA:CR33987 | 1 | 16.3 | 9.2 | 6212 | 6177 | inactive |
| CG13457 | 1 | 0.86 | 1.35 | 6146 | 6604 | inactive |
| CG13457 | 2 | 5.62 | 8.5 | 6276 | 5891 | inactive |
| Alg13 | 1 | 3.66 | 19.3 | 6392 | 5756 | inactive |
| Alg13 | 2 | 11.7 | 10.3 | 3770 | 6385 | inactive |
| GluRS-m | 1 | 2.15 | 4.2 | 6292 | 6212 | inactive |
| GluRS-m | 2 | 7.41 | 3.29 | 6167 | 6322 | inactive |
| elm | 1 | 17 | 13.7 | 4822 | 6999 | inactive |
| CG7997 | 1 | 5.4 | 4.92 | 6792 | 6519 | inactive |
| CG7997 | 2 | 15.5 | 6.58 | 6310 | 6578 | inactive |
| ac | 1 | 6.39 | 7.73 | 5992 | 2108 | inactive |
| ac | 2 | 6.67 | 15.7 | 2698 | 4254 | inactive |
| TwdlH | 1 | – | 10.4 | 386 | 3298 | inactive |
